Data: article PMC8158687, “Xanthones Active against Multidrug Resistance and Virulence Mechanisms of Bacteria” (Antibiotics, 2021)

System: SE03 (acrA gene-inactivated Salmonella enterica serovar Typhimurium SL1344)
Assay: Efflux pump inhibition assay (real-time ethidium bromide accumulation)
Format: cell-based
Settings: compound 50 µM, EB 1 µg/mL, minute 60
Method: Salmonella enterica serovar Typhimurium SE03, was used as a Gram-negative bacterium. This strain has a deletion of the acrA gene, which was predicted with the least affinity for the compounds. The aim of these studies was to perform a first screening of these compounds and their ability to modulate the efflux of EB. […] The relative fluorescence index (RFI) was calculated based on the means of relative fluorescence units, depicted in Table 2.
Compounds 1–20 were evaluated for their ability to inhibit efflux pumps in SE03 and S. aureus 272123 strains, through the real-time fluorimetry, monitoring the intracellular accumulation of EB, an efflux pump substrate. This was determined by the automated method using a CLARIOstar Plus plate reader (BMG Labtech, Ortenberg, Germany). Reserpine and CCCP were applied at 25 µM as positive controls, and the solvent DMSO was applied at 1% v/v. The bacterial strains were incubated in an appropriate culture media (TSB—S. aureus 272123; LB-B—SE03) at 37 °C until they reached an optical density (OD) between 0.4 and 0.6 at λ = 600 nm. The culture was centrifuged at 13,000× g for 3 min, and the pellet washed and resuspended with PBS. […] The plates were placed into the CLARIOstar plate reader, and the fluorescence was monitored at excitation and emission wavelengths of 530 nm and 600 nm every minute for one hour on a real-time basis. […]

Compound	RFI ± SD (relative fluorescence index)
O=c1c2ccccc2oc2cc(O)c(O)cc12 [Compound 2]	−0.57 ± 0.02 ^7
COc1cccc2oc3ccccc3c(=O)c12 [Compound 11]	0.28 ± 0.09 ^6
